Pooled drug test results. Numbers come from NIAID ChemDB, via PubChem.

Common to all: target-level tests; species: HIV-1; target: Integrase; endpoint: IC50

An empty or dashed field is not shown.

| smiles | strain or isolate | method | setting | result |
|---|---|---|---|---|
| CN1C/C(=C\c2cc(O)c(O)c(O)c2)C(=O)/C(=C/c2cc(O)c(O)c(O)c2)C1 |  | disintegration |  | 1 µM |
| Cc1ccnc(NS(=O)(=O)c2ccc(N=Nc3cc4ccccc4c(C(=O)O)c3O)cc2)n1 |  | 3′ processing | Mg2+ | 59 µM |
| O=C(/C=C/c1ccc(O)c(O)c1)OCCc1ccccc1 |  | strand transfer |  | 19 µM |
| COc1cc([C@@H]2c3cc4c(cc3[C@@H](O[C@@H]3O[C@@H]5CO[C@@H](C)O[C@H]5[C@H](O)[C@H]3O)[C@H]3COC(=O)[C@H]23)OCO4)cc(OC)c1O |  | strand transfer |  | >100 µM |
| CN1CCc2ccc([C@@H]3CC3c3ccc4cc(C(=N)N)ccc4c3)cc2C1C1CCCCCC1 |  | strand transfer |  | 54 µM |
| O=C1C(=O)N(CC2CC2)C(c2ccccc2)/C1=C(/O)c1ccccc1 |  | strand transfer |  | >100 µM |
| O=C(NCc1ccc(F)cc1)c1nc(N2CCCCS2(=O)=O)c2cccnc2c1O |  | strand transfer |  | 0.015 µM |
| C[C@@H]1O[C@@H](O[C@@H]2[C@@H](O)[C@H](OCCc3ccc(O)c(O)c3)O[C@H](COC(=O)/C=C/c3ccc(O)c(O)c3)[C@H]2O)[C@H](O)[C@H](O)[C@H]1O |  | 3′ processing |  | 13.7 µM |
| COc1cc(NS(C)(=O)=O)ccc1Nc1c2ccccc2nc2ccccc12 |  | strand transfer |  | >100 µM |
| Nc1ccc2nc(N)[nH]c2c1 |  | strand transfer |  | 170 µM |
| N#C/C(=C\c1cc(O)c(O)c(O)c1)C(=O)NCCCCCNC(=O)/C(C#N)=C/c1cc(O)c(O)c(O)c1 |  | strand transfer |  | 0.17 µM |
| COc1cc(/C=C/C(=O)CC(=O)/C=C/c2ccc(O)c(OC)c2)ccc1O |  | disintegration |  | ~220 µM |
| CN1CCc2ccc([C@@H]3CC3c3ccc4cc(C(=N)N)ccc4c3)cc2C1c1ccccc1 |  | strand transfer |  | 41 µM |
| O=C(O)c1cc2ccccc2c(N=Nc2ccc(S(=O)(=O)Nc3nccs3)cc2)c1O |  | 3′ processing | Mn2+ | 19 µM |
| NCCCCNCCCN |  | 3′ processing / substrate cleavage |  | >100 µM |
| CCN1C/C(=C\c2ccc(O)c(O)c2)C(=O)/C(=C/c2ccc(O)c(O)c2)C1 |  | strand transfer |  | 1.1 µM |
| CN(C)[C@@H]1C(=O)C(C(=O)NCNC(CO)(CO)CO)=C(O)[C@@]2(O)C(=O)C3=C(O)c4c(O)cccc4[C@@](C)(O)[C@H]3C[C@@H]12.Cl | RF | strand transfer |  | 0.5 µM |
| COc1cc(CCO[C@@H]2O[C@H](CO)[C@@H](OC(=O)/C=C/c3ccc(O)c(O)c3)[C@H](O[C@@H]3O[C@@H](C)[C@H](O)[C@@H](O)[C@H]3O)[C@H]2O)ccc1O |  | 3′ processing |  | 60.9 µM |
| N=C(N)c1ccc2cc(C#Cc3ccccc3O)ccc2c1 |  | strand transfer |  | 300 µM |
| N#C/C(=C\c1ccc(O)c(O)c1)C(=O)NCCc1ccc(O)c(O)c1 |  | 3′ processing / substrate cleavage |  | 5–10 µM |
| O=C1C=CC(=O)c2ccccc21 |  | 3′ processing / substrate cleavage |  | >100 µM |
| CCCCCC(=O)c1c(O)cc2c(c1O)C(=O)c1c(O)cc(O)cc1C2=O |  | 3′ processing | Mn2+ | 53 µM |
| CC(O)C(NCNC(=O)C1=C(O)C2(O)C(=O)C3=C(O)c4c(O)cccc4C(C)(O)C3CC2C(N(C)C)C1=O)C(=O)O | RF | strand transfer |  | 1 µM |
| O=C1C=CC(=O)c2c(O)ccc(O)c21 |  | strand transfer |  | 2.5 µM |
| CN(C)[C@@H]1C(=O)C(C(N)=O)=C(O)[C@@]2(O)C(=O)C3=C(O)c4c(O)cccc4[C@@](C)(O)[C@H]3C[C@@H]12 | RF | 3′ processing |  | 204 µM |
| O=C(O)C(=Cc1ccc(O)c(O)c1)C(=Cc1ccc(O)c(O)c1)C(=O)O |  | 3′ processing |  | 0.83 µM |
| N=C(N)c1ccc2cc(C#Cc3ccc(CN)cc3)ccc2c1 |  | strand transfer |  | 300 µM |
| CCN(CC)CCCC(C)Nc1c2ccc(Cl)cc2nc2ccc(OC)cc12 |  | strand transfer |  | >100 µM |
| Nc1nc2ccc(NS(=O)(=O)c3cc(C(F)(F)F)ccc3Cl)cc2[nH]1 |  | strand transfer |  | 1.8 µM |
| CC(=O)C(N=Nc1ccc(S(=O)(=O)Nc2ccccn2)cc1)C(=O)Nc1ccccc1C |  | 3′ processing | Mg2+ | >200 µM |
| N#C/C(=C\c1ccc(O)c(O)c1)C(=O)NCCCCNC(=O)/C(C#N)=C/c1ccc(O)c(O)c1 |  | 3′ processing / substrate cleavage |  | 5–10 µM |
| O=C(NC(=O)c1cn(CCN2CCNCC2)c(=O)[nH]c1=O)OCc1ccccc1 |  | 3′ processing | Mn2+ | >200 µM |
| O=C1NC(=O)C(=Cc2cc(O)c(O)c(O)c2)C(=O)N1 |  | disintegration |  | 5.3 µM |
| N=C(N)c1ccc2cc(C#Cc3ccccn3)ccc2c1 |  | strand transfer |  | 300 µM |
| N#C/C(=C\c1cc(O)c(O)c(I)c1)C(=O)NCCCc1ccccc1 |  | 3′ processing / substrate cleavage |  | 10–100 µM |
| O=C1C(=Cc2ccc(Cl)c(Cl)c2)CCCC1=Cc1ccc(Cl)c(Cl)c1 |  | 3′ processing |  | >100 µM |
| N#C/C(=C\c1ccc(O)c(O)c1)C(=O)NCCCCCCCCNC(=O)/C(C#N)=C/c1ccc(O)c(O)c1 |  | strand transfer |  | 5–10 µM |
| CN(C)[C@@H]1C(=O)C(C(=O)NCN2CCCC2)=C(O)[C@@]2(O)C(=O)C3=C(O)c4c(O)cccc4[C@@](C)(O)[C@H]3C[C@@H]12 | RF | strand transfer |  | 34.1 µM |
| O=C(/C=C/c1ccc(O)c2c1[C@H](C(=O)O[C@H](Cc1ccc(O)c(O)c1)C(=O)O)[C@@H](c1ccc(O)c(O)c1)O2)O[C@H](Cc1ccc(O)c(O)c1)C(=O)O |  | strand transfer |  | 0.37 µM |
| CN(C)C1C(=O)C(C(=O)NCNC(CCS(C)=O)C(=O)[O-])=C(O)C2(O)C(=O)C3=C(O)c4c(O)cccc4C(C)(O)C3CC12.[Na+] | RF | 3′ processing |  | 1.2 µM |
| N=C(N)c1ccc2cc(C3C[C@H]3c3ccccc3)ccc2c1 |  | strand transfer |  | 92 µM |

For reference, 6 entries again:

smiles,strain or isolate,method,setting,result
CCN(CC)CCCC(C)Nc1c2ccc(Cl)cc2nc2ccc(OC)cc12,,strand transfer,,>100 µM
O=C1NC(=O)C(=Cc2cc(O)c(O)c(O)c2)C(=O)N1,,disintegration,,5.3 µM
N=C(N)c1ccc2cc(C#Cc3ccccc3O)ccc2c1,,strand transfer,,300 µM
N#C/C(=C\c1cc(O)c(O)c(O)c1)C(=O)NCCCCCNC(=O)/C(C#N)=C/c1cc(O)c(O)c(O)c1,,strand transfer,,0.17 µM
CC(=O)C(N=Nc1ccc(S(=O)(=O)Nc2ccccn2)cc1)C(=O)Nc1ccccc1C,,3′ processing,Mg2+,>200 µM
O=C(O)c1cc2ccccc2c(N=Nc2ccc(S(=O)(=O)Nc3nccs3)cc2)c1O,,3′ processing,Mn2+,19 µM

ICn is the concentration giving n% inhibition. Rows are shuffled and stem from different studies. a–b is a range or a potency band.